{"source": "paper PMC11370232", "about": "“Repurposing of a library for high-content screening of inhibitors against Echinococcus granulosus” (Parasites & Vectors, 2024)", "system": "E. granulosus PSCs", "note": "Like-named read-outs stand apart in the source and are kept apart here.", "data": [{"smiles": "COC(=O)C(N)Cc1ccc(N(CCCl)CCCl)cc1", "note": "(stereo not shown)", "values": [{"measurement": "mortality", "setting": "read-out: Anti-echinococcus activity % of death, 0.5uM, compound at 0.5uM", "result": 0, "unit": "%"}, {"measurement": "mortality", "setting": "read-out: Anti-echinococcus activity % of death, 2uM, compound at 2uM", "result": 0, "unit": "%"}, {"measurement": "mortality", "setting": "read-out: Anti-echinococcus activity % of death, 10uM, compound at 10uM", "result": 100, "unit": "%"}, {"measurement": "mortality", "setting": "read-out: Anti-echinococcus activity % of death, 50uM, compound at 50uM", "result": 100, "unit": "%"}]}]}
